Measured values: patent US20010014345A1, “MATERIAL, METHOD AND APPARATUS FOR INHIBITING BACTERIAL GROWTH IN AN AQUEOUS MEDIUM” (priority 1995, published 2001)
Several values for one entry are separate records, joined by “and”; a condition that tells them apart may be missing. Equal entries are not always repeated.

Legend:
Pseudomonas aeruginosa [1] = experiment: Biocide efficiency (B.E.) of immobilised biocides in recirculating column test; type: cell-based; conditions: column length 10 cm, biocide immobilised on Amberlite XAD-4, 30° C., 13.5 ml/min
Pseudomonas aeruginosa [2] = experiment: Recirculating column test of immobilised biocide (active beads), viable bacterial counts / growth curve; type: cell-based; conditions: active beads on Amberlite XAD-4, 10x1 cm column, ~10^4 cfu/ml challenge, FIG. 3

Substance	B.E. (t-24 h) (Pseudomonas aeruginosa [1])	growth of the bacteria versus control beads (Pseudomonas aeruginosa [2])
4,5-dichloro-2-n-octyl-isothiazolin-3-one	0.77 and 0.62	–
5-chloro-2-n-octyl-isothiazolin-3-one	–	capable of significantly limiting the growth of the bacteria
